Measurements reported in publication PMC3236198.
For at least one entry, the source does not settle the construct or the ends of the probe. At least one verdict rests on a figure or table, not on a statement of the authors. Protein sequences can lack the tags named with them.

Biological target: T1, MtuSSB (Mycobacterium tuberculosis) (UniProt P9WGD5)
T1 sequence: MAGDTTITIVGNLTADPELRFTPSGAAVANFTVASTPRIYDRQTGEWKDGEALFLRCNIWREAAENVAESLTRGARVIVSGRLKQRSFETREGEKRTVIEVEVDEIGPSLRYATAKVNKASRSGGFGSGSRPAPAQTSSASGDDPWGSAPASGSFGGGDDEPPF
Assay: EMSA
Details: recombinant protein; label: 5'-32P; single-stranded DNA

GCACTAGTGCGGATAGCCCCGTGTTGTTGTCTGACCCCCGACCCCGACGGCAATGCGGGGCAATCCCCTGGAGGCCTGC [79mer ssDNA]
binding result: binds
